According to PMC10307035, “Antiviral activity of singlet oxygen-photogenerating perylene compounds against SARS-CoV-2: Interaction with the viral envelope and photodynamic virion inactivation” (Virus Research, 2023):

Each molecule was assayed on Vero cell membranes (assay: Confocal microscopy of compound-treated Vero cells). Settings: 10 µM, 1 h.
Format: cell-based, African Green Monkey

SMILES | localisation in Vero cells
O=c1[nH]c(=O)n([C@H]2C[C@H](O)[C@@H](CO)O2)cc1C#Cc1ccc2c3cccc4cccc(c5cccc1c52)c43 [Compound 2, 5-(perylen-3-yl)ethynyl-2′-deoxy-uridine] | predominantly incorporated into the cytoplasmatic membrane and the nuclear envelope
O=C(NCCCCO)c1ccc(-c2ccc3c4cccc5cccc(c6cccc2c63)c54)s1 [Compound 17] | predominantly incorporated into the cytoplasmatic membrane and the nuclear envelope
CN(C)c1ccc(C#Cc2ccc3c4cccc5cccc(c6cccc2c63)c54)cc1 [Compound 14] | preferentially accumulated inside the cytoplasmic vesicles
CC(C)(C)C(=O)OCn1c(=O)c(C#Cc2ccc3c4cccc5cccc(c6cccc2c63)c54)cn(CC(=O)N(CCO)CCO)c1=O [Compound 13] | mainly localized in intracellular membranes and nuclear envelopes, and even in the nuclei
